Pooled drug test results. Numbers come from NIAID ChemDB, via PubChem.

All rows: whole-cell or culture tests; organism: Mycobacterium tuberculosis

A number after MIC or MFC names an inhibition level or a share of isolates. Inhibition is in % at the dose shown (toxicity tests: loss of growth or viability). MIC bound comes from a single tested concentration. Conditions beyond the fields shown may differ between rows. Blank or dashed fields: not listed here.

SMILES	dose	cell line	method	endpoint	strain	result
O=C(NNc1ccccc1[N+](=O)[O-])N1CCN(c2nc(N3CCN(c4ccccc4)CC3)c3ccccc3n2)CC1	-	-	BACTEC / fluorescence	MIC	H37Rv	>6.25 µg/mL
CN(C)CC1(C)CCc2c(ccc3ccccc23)C1=O.Cl	-	-	-	MIC	H37Rv	25 µg/mL
CCCN(/C=N/N=C/c1c2c(O)c3c(O)c(C)c4c(c3c1O)C(=O)[C@@](C)(O/C=C/[C@H](OC)[C@@H](C)[C@@H](OC(C)=O)[C@H](C)[C@H](O)[C@H](C)[C@@H](O)[C@@H](C)/C=C/C=C(/C)C(=O)N2)O4)CCC	-	-	-	MIC	H37Rv	0.02 µg/mL
N#C/C(=C\c1cc(Cl)cc(Cl)c1)n1nnc2ccccc21	-	-	-	MIC90	ATCC 27294	>100 µM
O=C(O)c1ccc2oc3ccccc3c2c1	-	-	-	MIC	H37Rv	25 µg/mL
CO[C@H]1/C=C/O[C@@]2(C)Oc3c(C)c(O)c4c(O)c(c(/C=N/N=C/N5CCOCC5)c(O)c4c3C2=O)NC(=O)/C(C)=C\C=C\[C@H](C)[C@H](O)[C@@H](C)[C@@H](O)[C@@H](C)[C@H](OC(C)=O)[C@@H]1C	-	-	-	MIC	H37Rv	0.02 µg/mL
Cc1ccc(/C=N/N=C(/N)c2ccccn2)cc1	-	-	-	MIC	1454 (THC-resistant)	64 µg/mL
CN(C)c1ccc(/C=N/N=C/c2ccccc2O)c(Cl)c1	-	-	BACTEC	MIC bound	H37Rv	>12.5 µg/mL
S=C(Nc1ccccc1)Nc1ncc(C2CCC2)o1	-	-	agar	MIC	MDR clinical isolate	5.73 µM
COC(=O)c1c(C2CCCCC2)nc2ccccc2c1C1CCCCC1	6.25 µg/mL	-	-	inhibition	H37Rv	95%
Nc1cc(S(=O)(=O)O)c2cccc(S(=O)(=O)O)c2c1	-	-	-	MIC	H37Rv	>100 µg/mL
O=C1C=C[C@@H](COC2OC(CO)C(O)C(O)C2O)O1	12.5 µg/mL	-	BACTEC	inhibition	H37Rv	99%
N/C(=N/N=C/c1ccccc1Br)c1ccccn1	-	-	-	MIC	1062 (THC-resistant)	32 µg/mL
CCOC(=O)C(=NNc1cccc(Cl)c1)C(=O)OCC	-	-	-	MIC	H37Rv	100 µg/mL
Cc1ccc(NC(=S)Nc2ncc(C3CCC3)o2)cc1	-	-	agar	MIC	MDR clinical isolate	6.12 µM
CCCC(=O)OCc1cc(=O)n(C)c2c3c4c(cc12)c(C)cc(=O)n4CO3	-	-	-	MIC	EMB-R	<0.1 µg/mL
CC(=O)C(C(c1ccccc1)N(C)Cc1ccccc1)N(C)Cc1ccccc1	-	-	-	MIC	H37Rv	>100 µg/mL
c1ccc(B2OB(c3ccccc3)OB(c3ccccc3)O2)cc1	128 µg/mL	-	BACTEC	inhibition	H37Rv	76%
Oc1ccccc1NC(=S)Nc1ncc(C2CCC2)o1	-	-	agar	MIC	H37Rv	10.81 µM
OC1(c2cccc(Cl)c2)C2=NCCCN2c2ccccc21	-	-	resazurin	MIC bound	H37Rv	>6.25 µg/mL
Cc1ccc(/C=N/N=C(/N)c2ccccn2)c(C)c1	-	-	-	MIC	1454 (THC-resistant)	125 µg/mL
CCN(CC)c1ccc2nc(C)cc(C)c2c1	-	-	-	MIC	H37Rv	>100 µg/mL
CO[C@H]1/C=C/O[C@@]2(C)Oc3c(C)c(O)c4c(=O)c(c5oc6cc(N7CCN(CC(C)C)CC7)cc(=O)c6nc5c4c3=C2O)NC(=O)/C(C)=C\C=C\[C@H](C)[C@H](O)[C@@H](C)[C@@H](O)[C@@H](C)[C@H](OC(C)=O)[C@@H]1C	-	-	-	MIC	H37Rv-pHT (Tyr 526 mutation)	8 µg/mL
N/C(=N/N=C/c1cccc(F)c1)c1ccccn1	-	-	-	MIC	1814 (THC-resistant)	125 µg/mL
Cn1c(=O)cc2c3c(c(Br)cc(Br)c31)C(=O)c1ccccc1-2	-	-	-	MIC	H37Rv	>100 µg/mL
Cc1ccccc1NNC(=O)N1CCN(c2nc(N3CCN(c4ccccc4)CC3)c3ccccc3n2)CC1	-	-	BACTEC / fluorescence	MIC	H37Rv	>6.25 µg/mL
N#C/C(=C\c1cccc(F)c1F)n1nnc2ccccc21	-	-	-	MIC50	ATCC 27294	52.4 µM
COc1ccc(OC)c(/C=N/N=C(\N)c2ccccn2)c1	-	-	-	MIC	H37Rv	250 µg/mL
O=C1C(=Nc2ccc(Cl)nc2)CC(c2ccccc2)N1c1ccc(Cl)nc1	12.8 µg/mL	-	BACTEC	inhibition	H37Rv	-18%
O=C(CCl)NC(NC(=O)CCl)c1ccccc1	-	-	-	MIC	H37Rv	>100 µg/mL
CC(=O)O[C@H]1C(=O)[C@]2(C)[C@@H](OC(C)=O)C[C@H]3OC[C@@]3(OC(C)=O)[C@H]2[C@H](OC(=O)c2ccccc2)[C@]2(O)C[C@H](OC(=O)[C@H](OC(C)=O)[C@@H](NC(=O)c3ccccc3)c3ccccc3)C(C)=C1C2(C)C	-	-	-	MIC	ETA-R	6.3 µg/mL
Cl.NC(CCc1ccccc1)c1ccccc1	-	-	-	MIC	H37Rv	62.5 µg/mL
CCCCCCCCCC(=O)N[C@H]1[C@H](Oc2c3cc4cc2Oc2ccc(cc2Cl)[C@@H](O[C@@H]2O[C@H](CO)[C@@H](O)[C@H](O)[C@H]2NC(C)=O)[C@@H]2NC(=O)[C@H](NC(=O)[C@@H]4NC(=O)[C@H]4NC(=O)[C@@H](Cc5ccc(c(Cl)c5)O3)NC(=O)[C@H](N)c3ccc(O)c(c3)Oc3cc(O)cc4c3)c3ccc(O)c(c3)-c3c(O[C@H]4O[C@H](CO)[C@@H](O)[C@H](O)[C@@H]4O)cc(O)cc3[C@H](C(=O)O)NC2=O)O[C@H](CO)[C@@H](O)[C@@H]1O	-	-	-	MIC	L1913	>64 µg/mL
N#Cc1ccc(NNC(=O)N2CCN(c3nc(N4CCN(c5ccccc5)CC4)c4ccccc4n3)CC2)cc1	12.5 µg/mL	-	agar / visual reading	inhibition	H37Rv	93%
CCn1cc(C(=O)O)c(=O)c2cc(F)c(N3CCNCC3)cc21	-	-	-	MIC50	-	4 µg/mL
CC(=O)C1(C)Nc2cccc3cccc(c23)N1	-	-	BACTEC	MIC	H37Rv	≥12.8 µg/mL
c1ccc2scnc2c1	-	-	-	MIC	H37Rv	>100 µg/mL
Cc1ccc(NNC(=O)N2CCN(c3nc(N4CCN(c5ccccc5)CC4)c4ccccc4n3)CC2)cc1	6.25 µg/mL	-	BACTEC / fluorescence	inhibition	H37Rv	0%
C=C(C)CC[C@H]1CN(c2ccn(N3CCOCC3)c2)C(=O)O1	-	-	-	MIC90	ATCC 27294	>100 µM
N#C/C(=C/c1ccccc1I)n1nnc2ccccc21	-	-	-	MIC50	ATCC 27294	11.3 µM
Cc1cc(=O)[nH]c2ccc3ccccc3c12	-	-	-	MIC	H37Rv	>100 µg/mL
Cn1cc(NC(=O)c2cc(NC(=O)CCCCCCCC(=O)Nc3cc(C(=O)Nc4cc(C(=O)NCCC(N)=[NH2+])n(C)c4)n(C)c3)cn2C)cc1C(=O)NCCC(N)=[NH2+]	-	-	BACTEC	MIC bound	H37Rv	≤12.5 µg/mL
N/C(=N/N=C/c1ccccc1Cl)c1ccccn1	-	-	-	MIC	H37Rv	8 µg/mL
O=C(O)c1ccc(NNC(=O)N2CCN(c3nc(N4CCN(c5ccccc5)CC4)c4ccccc4n3)CC2)cc1	100 µg/mL	-	agar / visual reading	inhibition	H37Rv	90%
COC(=O)N1c2ccccc2N(C(=O)OC)c2c1oc1ccccc1c2=O	-	VERO	BACTEC	MIC	H37Rv	>12.5 µg/mL
COC(=O)c1cc(C2C3CC4CC(C3)CC2C4)nc2ccccc12	6.25 µg/mL	-	-	inhibition	H37Rv	49%
C[C@]1(COc2ccc(N3CCC(Oc4ccc(OC(F)(F)F)cc4)CC3)cc2)Cn2cc([N+](=O)[O-])nc2O1	-	-	-	MIC90	36 strains (rifampicin-resistant)	0.012 µg/mL
FC(F)(F)c1ccc2c(c1)N(CCCN1CCN(CCC3OCCCO3)CC1)c1ccccc1S2	-	-	-	MIC	H37Rv	>12.5 µg/mL
N#C/C(=C\c1ccccc1C(F)(F)F)n1nnc2ccccc21	-	-	-	MIC50	ATCC 27294	22.4 µM
COc1ccc(/C=N/NC(=O)c2ccncc2)cc1	-	VERO	BACTEC	MIC	H37Rv	0.002 µg/mL
COc1ccccc1Sc1nnc(N2CCN(c3nc(N4CCN(c5ccccc5)CC4)c4ccccc4n3)CC2)o1	100 µg/mL	-	agar / visual reading	inhibition	H37Rv	91%
O=C(O)c1cc(C2C3CC4CC(C3)CC2C4)nc2ccccc12	-	-	-	MIC	H37Rv	>6.25 µg/mL
N/C(=N/N=C/c1ccccc1)c1ccccn1	-	-	-	MIC	H37Rv	32 µg/mL
CC(C)=CCC1=C(OC2OC(CO)C(O)C(O)C2O)C(=O)c2ccccc2C1=O	-	-	BACTEC	MIC	H37Rv	128 µg/mL
COc1cc(C=O)ccc1O	-	-	-	MIC	H37Rv	>100 µg/mL
O=C(NNc1cccc([N+](=O)[O-])c1)N1CCN(c2nc(N3CCN(c4ccccc4)CC3)c3ccccc3n2)CC1	-	-	agar / visual reading	MIC	H37Rv	50 µg/mL
CCN(CC)CCCSC(=N)N.Cl	-	-	-	MIC	H37Rv	>100 µg/mL
COC1(Nc2ccc(C=O)cc2)C(=O)c2ccccc2OC1(OC)c1ccc([N+](=O)[O-])cc1	12.5 µg/mL	-	BACTEC	inhibition	H37Rv	0%
Fc1ccc(NC(=S)Nc2ncc(C3CCC3)o2)cc1	-	-	agar	MIC	MDR clinical isolate	0.68 µM
CC(=O)Nc1cccc(N(C)C)c1	-	-	-	MIC	H37Rv	>100 µg/mL
CO[C@H]1/C=C/O[C@@]2(C)Oc3c(C)c(O)c4c(O)c(c(/C=N/N=C/N5CCCCC5)c(O)c4c3C2=O)NC(=O)/C(C)=C\C=C\[C@H](C)[C@H](O)[C@@H](C)[C@@H](O)[C@@H](C)[C@H](OC(C)=O)[C@@H]1C	-	-	-	MIC	H37Rv	0.01 µg/mL
CCN(CC)C(=O)c1ccc(N)cc1	-	-	-	MIC	H37Rv	50 µg/mL
COC(=O)c1cc2ccccc2nc1C1CCCC1	-	-	-	MIC	H37Rv	>6.25 µg/mL
COc1ccc(C(C)OC(C)c2ccc(OC)cc2)cc1	-	-	-	MIC	H37Rv	>100 µg/mL
CO[C@H]1/C=C/O[C@@]2(C)Oc3c(C)c(O)c4c(O)c(c(/C=N/N=C/N(C)C)c(O)c4c3C2=O)NC(=O)/C(C)=C\C=C\[C@H](C)[C@H](O)[C@@H](C)[C@@H](O)[C@@H](C)[C@H](OC(C)=O)[C@@H]1C	-	-	-	MIC	H37Rv	0.02 µg/mL
Clc1cc2ns[s+]c2cc1Cl.[Cl-]	-	-	BACTEC	MIC bound	H37Rv	<6.25 µg/mL
OC(c1ccccc1)c1ccccc1	-	-	-	MIC	H37Rv	>100 µg/mL
N#Cc1ncc(C(Cl)(Cl)Cl)nc1Cl	-	-	-	MIC	PZA-R	6.3 µg/mL
COC(=O)c1ccnc2ccccc12	6.25 µg/mL	-	-	inhibition	H37Rv	0%
CC(=O)NC[C@H]1CN(c2ccc(N3CCOCC3)c(F)c2)C(=O)O1	-	-	-	MIC50	42 isolates	0.25 µg/mL
COC(=O)c1cc(C2CCCCC2)c2ccccc2n1	-	-	-	MIC	H37Rv	>6.25 µg/mL
CCOc1ccc(NC(=O)c2cc3ccccc3cc2O)cc1-c1ccccc1	-	-	-	MIC	H37Rv	>100 µg/mL
N#CC1=C(c2ccccc2)C(=C2Nc3ccccc3N2)C2S/C(=C\c3ccccc3)C(=O)N2C1=N	6.25 µg/mL	-	resazurin	inhibition	H37Rv	13%
COC(=O)c1cc(C2C3CC4CC(C3)CC2C4)nc2c(C3C4CC5CC(C4)CC3C5)cccc12	-	-	-	MIC	H37Rv	>6.25 µg/mL
CC1=NOC(=O)C1C(C)(C)C1C(=O)ON=C1C	6.25 µg/mL	-	resazurin	inhibition	H37Rv	33%
N#C/C(=C\c1ccc(C(F)(F)F)cc1C(F)(F)F)n1nnc2ccccc21	-	-	-	MIC90	ATCC 27294	24.4 µM
O=C(O)CN1C(=O)OC(c2ccccc2)C1=O	12.5 µg/mL	-	BACTEC	inhibition	H37Rv	0%
CSC(=N)c1ccc(O)cc1O	-	-	-	MIC	H37Rv	>100 µg/mL
Cc1ccc(S(=O)(=O)[O-])cc1.Cc1ccc(S(=O)(=O)[O-])cc1.Cn1c(-c2ccc(/C=N/N3CCN(/N=C/c4ccc(-c5c[n+]6ccsc6n5C)cc4)CC3)cc2)c[n+]2ccsc12	-	-	BACTEC	MIC bound	H37Rv	>12.5 µg/mL
COc1cccc2cccnc12	-	-	-	MIC	H37Rv	>100 µg/mL
O=Cc1ccc(Sc2nnc(N3CCN(c4nc(N5CCN(c6ccccc6)CC5)c5ccccc5n4)CC3)o2)cc1	-	-	agar / visual reading	MIC	H37Rv	25 µg/mL

A second listing of 9 rows from above:

| SMILES | dose | cell line | method | endpoint | strain | result |
|---|---|---|---|---|---|---|
| O=C(O)c1cc(C2C3CC4CC(C3)CC2C4)nc2ccccc12 | - | - | - | MIC | H37Rv | >6.25 µg/mL |
| CC(=O)O[C@H]1C(=O)[C@]2(C)[C@@H](OC(C)=O)C[C@H]3OC[C@@]3(OC(C)=O)[C@H]2[C@H](OC(=O)c2ccccc2)[C@]2(O)C[C@H](OC(=O)[C@H](OC(C)=O)[C@@H](NC(=O)c3ccccc3)c3ccccc3)C(C)=C1C2(C)C | - | - | - | MIC | ETA-R | 6.3 µg/mL |
| CCCN(/C=N/N=C/c1c2c(O)c3c(O)c(C)c4c(c3c1O)C(=O)[C@@](C)(O/C=C/[C@H](OC)[C@@H](C)[C@@H](OC(C)=O)[C@H](C)[C@H](O)[C@H](C)[C@@H](O)[C@@H](C)/C=C/C=C(/C)C(=O)N2)O4)CCC | - | - | - | MIC | H37Rv | 0.02 µg/mL |
| CCOC(=O)C(=NNc1cccc(Cl)c1)C(=O)OCC | - | - | - | MIC | H37Rv | 100 µg/mL |
| CC(=O)C(C(c1ccccc1)N(C)Cc1ccccc1)N(C)Cc1ccccc1 | - | - | - | MIC | H37Rv | >100 µg/mL |
| CCN(CC)C(=O)c1ccc(N)cc1 | - | - | - | MIC | H37Rv | 50 µg/mL |
| CCN(CC)c1ccc2nc(C)cc(C)c2c1 | - | - | - | MIC | H37Rv | >100 µg/mL |
| OC(c1ccccc1)c1ccccc1 | - | - | - | MIC | H37Rv | >100 µg/mL |
| N#C/C(=C\c1cc(Cl)cc(Cl)c1)n1nnc2ccccc21 | - | - | - | MIC90 | ATCC 27294 | >100 µM |